Measurements reported in ChEMBL document CHEMBL3785078 (Eur J Clin Pharmacol, 1981).

Assays:
Conditions in all cases: in vivo
Homo sapiens [1] = assay: First order elimination rate constant in iv dosed patient (7 patients) with renal insufficiency
Homo sapiens [2] = assay: Half life in iv dosed patient (7 patients) with renal insufficiency
Homo sapiens [3] = assay: First order elimination rate constant in iv dosed patient with normal renal function
Homo sapiens [4] = assay: Half life in iv dosed patient with normal renal function

## NP(=O)(O)N(CCCl)CCCl
Homo sapiens [1]
  Kel: 1.67e-05 s⁻¹
Homo sapiens [2]
  t1/2: 13.4 h
Homo sapiens [3]
  Kel: 2.42e-05 s⁻¹
Homo sapiens [4]
  t1/2: 8.33 h
